Compound potency records, mixed from different reports. Data source: NIAID ChemDB in PubChem.

Shared fields: growth or infection tests; organism: Vesicular stomatitis virus; read by: cytopathic effect; measure: EC50

An empty or dashed field is not shown.

smiles	strain	cell line	value
Nc1nc2c(ncn2C[C@H]2CC[C@@H](CO)C2)c(=O)[nH]1		HeLa	>200 µg/mL
CCOC(=O)C(CCSC[C@H]1O[C@@H](n2ccc3c(N)ncnc32)[C@H](O)[C@@H]1O)NC(=O)COC		PRK/E6SM	70 µg/mL
Nc1cc(OC[C@H](CO)OCP(=O)(O)O)nc(N)n1			>15 µM
O[C@@H]1CC(n2cnc3cc(Cl)c(Cl)cc32)OC[C@@H]1O		HeLa	>100 µg/mL
O=c1[nH]c(=O)n([C@H]2C[C@H](O)[C@@H](CO)S2)cc1C1CCCC1		E6SM	>1200 µM
CCCOC(=O)C(CCSC[C@H]1O[C@@H](n2ccc3c(N)ncnc32)[C@H](O)[C@@H]1O)NC(=O)C(F)(F)F		HeLa	20 µg/mL
Nc1ncnc2c1ncn2CCOCP(=O)(O)O			>185 µM
NC(=O)c1ccnc([C@@H]2O[C@H](CO)[C@@H](O)[C@H]2O)c1		PRK	>400 µg/mL
Nc1ncnc2c1c(Br)cn2[C@@H]1O[C@H](CO)[C@@H](O)[C@H]1O		HeLa	0.07 µg/mL
Cn1cc(NC(=O)c2cc(NC(=O)CN=C(N)N)cn2C)c(C(=O)NCCC(=N)N)c1		PRK	≥40 µg/mL
Nc1nc2c(nnn2C[C@H]2CC[C@@H](CO)C2)c(=O)[nH]1		HeLa	>200 µg/mL
Clc1cc2nc[nH]c2cc1Cl		HeLa	>10 µg/mL
Nc1ncnc2c1ncn2C[C@H](O)CO		L929	70 µg/mL
NC(=O)c1c[se]c([C@@H]2O[C@H](CO)[C@@H](O)[C@H]2O)n1	Indiana	HeLa	9 µg/mL
Nc1nc(N)c2nnn(C[C@H]3CC[C@@H](CO)C3)c2n1		HeLa	>200 µg/mL
O[C@@H]1[C@@H](OCc2ccccc2)[C@@H](COCc2ccccc2)O[C@H]1n1cnc2cc(Cl)c(Cl)cc21		HeLa	>10 µg/mL
Nc1nc(N)c2ncn(C[C@H]3CC[C@@H](CO)C3)c2n1		E6SM	>400 µg/mL
O=c1[nH]c(=O)n([C@H]2C[C@H](O)[C@@H](CO)O2)cc1C1CCCCC1		E6SM	>1200 µM
Nc1ncnc2c1ncn2C[C@@H](CO)OCP(=O)(O)O			>50 µM
Nc1nccc2c1ncn2[C@@H]1C[C@H](CO)[C@@H](O)[C@H]1O		HeLa	4 µg/mL
Nc1nccc2c1ncn2[C@@H]1C[C@H](CO)[C@@H](O)[C@H]1O		PRK	2 µg/mL
Nc1ncnc2c1ccn2[C@@H]1O[C@H](CO)[C@H](O)[C@H]1O		HeLa	≥4 µg/mL
O=c1[nH]c(=O)n([C@H]2C[C@H](O)[C@@H](CO)O2)cc1C1CCC1		E6SM	>1500 µM
O=[N+]([O-])c1cc(Cl)c(Cl)cc1[N+](=O)[O-]		HeLa	>4 µg/mL
Nc1nccc2c1ncn2[C@@H]1C[C@H](CO)[C@@H](O)[C@H]1O		CV-1	>400 µg/mL
Nc1ncnc2c1ncn2[C@@H]1C=C(CO)[C@@H](O)[C@H]1O		PRK	0.02 µg/mL
CC(C)[Si]1(C(C)C)OC[C@H]2O[C@@H](n3cnc4cc(Cl)c(Cl)cc43)[C@H](O)[C@H]2O[Si](C(C)C)(C(C)C)O1		HeLa	>10 µg/mL
Nc1ncnc2c1ncn2[C@@H]1O[C@H](C#CBr)[C@@H](O)[C@H]1O		HeLa	45 µM

2 of the rows above, restated:

smiles,strain,cell line,value
Nc1ncnc2c1c(Br)cn2[C@@H]1O[C@H](CO)[C@@H](O)[C@H]1O,,HeLa,0.07 µg/mL
Nc1ncnc2c1ccn2[C@@H]1O[C@H](CO)[C@H](O)[C@H]1O,,HeLa,≥4 µg/mL

ECn: concentration that inhibits the pathogen or its effect by n%. Lines come from different laboratories, so protocols vary.